In patent publication US20050255083:

Test system: wild-type anthrax toxin protective antigen (PrAg)

Substance: urokinase plasminogen activator (uPA)
- in vitro cleavage (SDS-PAGE, Western blot): Wild-type PrAg also showed a low degree of susceptibility to uPA
